Results reported in patent publication EP1206258B1, “COMPOSITIONS CONTAINING ESTERS FOR TREATING PARASITIC INFESTATIONS OF ORGANISMS” (priority 1999, dated 2001).

Tested on: Psoroptes cuniculi
Test: in vitro immersion assay on the mite Psoroptes cuniculi
Conditions: adult males, adult females, female nymphs; first 24 hour exposure
Description: A series of in vitro assays were conducted to examine the effects of the compound trans-cinnamic acid ethyl ester on the mite Psoroptes cuniculi. This mite infests rabbits and is very similar to the mite Psoroptes ovis which infests sheep and causes sheep scab.
The mites were taken from the ears of infested rabbits and exposed for 24 hours to the active compound at concentrations of 10, 1 or 0.1 % (V/V). The concentrations were obtained by serial dilution of the compound in 0.05% sodium dodecyl sulphate (SDS).
This is illustrated in Figure 2 of the accompanying drawings.
The LC95 was 6.29% (95% confidence interval 4.98-8.88).
Line (1) represents adult males, line (2) adult females and (3) female nymphs.
Thus, trans-cinnamic acid ethyl ester gives greater than 50% levels of mortality within 24 hours, for all life cycle stages of P. cuniculi after short contact times (1 min) at concentrations of 2.2% (V/V). At one minute contact time, concentrations of greater than 6% (V/V) are required to bring about mortality of greater than 95%. Recent theoretical analysis using simulation modelling (Wall, unpublished) has shown that sustained mortality of greater than 50% per day is required to suppress a growing population of P. ovis.

For CCOC(=O)/C=C/c1ccccc1 [trans-cinnamic acid ethyl ester], the “mortality of the various life cycle stages” value was “not significantly different”.
